Percent effect of library compounds

Mtb glucose medium: 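Phenotypic screen: M. tuberculosis growth, glucose 7H9 medium, 3 days; the read-out is not stated. Compounds at 500 µM. The record gives no direction; compounds that gave an IC50 in retests scored well above the rest, so higher reads as more growth inhibition. Size under these conditions: about 18,000 compounds, about 1,400 of them at 50% or above in at least one test.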
Mtb cholesterol medium: 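Growth of Mycobacterium tuberculosis over 4 days (cholesterol / DPPC medium with tyloxapol); the read-out is not stated. Concentration: 500 µM. Direction is inferred from retests: higher values go with more growth inhibition. Size under these conditions: about 18,000 compounds, about 900 of them at 50% or above in at least one test.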

The filed quantity is “Percent Effect” (%).
The controls that fix the scale are not given in the record; negative values are as filed.
This is part of a subset picked to be rich in strong results.

{"compound": "C1CC(N2CCOCC2)CCN1", "Mtb glucose medium": 0.4783}
{"compound": "CC1(NC(=O)CSc2ccccn2)CCS(=O)(=O)C1", "stereo": "stereo not shown", "Mtb cholesterol medium": -1.343}
{"compound": "CC(=O)N1CCC(C(=O)N(C)Cc2cscn2)CC1", "Mtb cholesterol medium": 3.451}
{"compound": "Cc1noc(COc2cccc(C#N)c2)n1", "Mtb cholesterol medium": 30.87}
{"compound": "COc1ccc(C(=O)N[C@@H]2CCOC[C@H]2O)cn1", "Mtb glucose medium": 3.326}
{"compound": "CC1CCN(C(=O)CNS(=O)(=O)c2ccccc2)CC1", "Mtb cholesterol medium": 18.9}
{"compound": "Cc1cc(NCc2ncc[nH]2)ccc1F", "Mtb glucose medium": 45.13}
{"compound": "COCCCNC(=O)c1ccn(-c2ccc(F)cc2)n1", "Mtb glucose medium": 57.55, "Mtb cholesterol medium": 62.01}
{"compound": "O=C(NCC1CCN(C2CC2)C1)c1ccccc1F", "stereo": "stereo not shown", "Mtb glucose medium": 64.71}
{"compound": "CCc1ccccc1NC(=O)C1CC(=O)C1", "Mtb glucose medium": 4.585}
{"compound": "O=C(CNc1cccc(CO)c1)NCc1ccc(Cl)s1", "Mtb glucose medium": 67.63, "Mtb cholesterol medium": 48.08}
{"compound": "NCc1ccc(-c2ccccc2)o1", "Mtb glucose medium": 0.5297}
{"compound": "CCCN(CCC)S(=O)(=O)N1CCC2(CC1)OCCO2", "Mtb glucose medium": 58.93}
{"compound": "O=C(NCC1(CO)COC1)C1=Cc2ccccc2OC1", "Mtb glucose medium": -4.931, "Mtb cholesterol medium": -12.29}
{"compound": "CCCn1cc(S(=O)(=O)N2C[C@H](C3CC3)[C@@H](N)C2)cn1", "Mtb glucose medium": 5.609}
{"compound": "O=C(CN1CCN(c2ccccn2)CC1)NC1CC1", "Mtb cholesterol medium": 2.272}
{"compound": "Cc1cnn(CCNCc2ccc3c(c2)OCCO3)c1", "Mtb glucose medium": 79.62, "Mtb cholesterol medium": 77.27}
{"compound": "COCCN1CCNCC1=O", "Mtb cholesterol medium": -10.96}
{"compound": "O=C(NCC[S+]([O-])c1ccccc1)c1cccnc1O", "stereo": "stereo not shown", "Mtb glucose medium": 17.54}
{"compound": "C[C@H]1CN(C(=O)C(C)(C)C)CCN1S(C)(=O)=O", "Mtb glucose medium": -6.786}
{"compound": "Cc1ccc(C)c(NC(=O)CCN2CCCC2)c1", "Mtb glucose medium": 24.72}
{"compound": "CO[C@H]1CNCC1NC(=O)c1ccc2ncccc2c1", "stereo": "stereo partly shown", "Mtb cholesterol medium": 10.24}
{"compound": "Cn1nccc1CC(=O)OCCN1CCCCC1=O", "Mtb glucose medium": -15.59}
{"compound": "CC(CNC(=O)NC1CCCC1)N1CCOCC1", "stereo": "stereo not shown", "Mtb cholesterol medium": 14.22}
{"compound": "CNCc1cnn(Cc2ccccc2)c1", "Mtb glucose medium": -2.33}
{"compound": "CSc1cccc(N(C)C(=O)C(N)c2ccccc2)c1", "stereo": "stereo not shown", "Mtb glucose medium": 66.3, "Mtb cholesterol medium": 55.03}
{"compound": "CN1C(=O)Cc2cc(S(=O)(=O)N3CCCCC3)ccc21", "Mtb cholesterol medium": -4.779}
{"compound": "Cc1cc(OC(F)F)c(C2NC(=O)CN2C)cc1C", "stereo": "stereo not shown", "Mtb glucose medium": 62.92}
{"compound": "Cc1cc(C)n(C2CCCNC2)n1", "stereo": "stereo not shown", "Mtb glucose medium": 0.7527}

The last 2 entries again:

{"compound": "Cc1cc(OC(F)F)c(C2NC(=O)CN2C)cc1C", "stereo": "stereo not shown", "Mtb glucose medium": 62.92}
{"compound": "Cc1cc(C)n(C2CCCNC2)n1", "stereo": "stereo not shown", "Mtb glucose medium": 0.7527}

From ChEMBL document CHEMBL3988442, “University of Dundee, Small-Polar-MMV Screening Library” (2021).